Consider one substance from paper PMC4347857, “Characterization of the Mycobacterial Acyl-CoA Carboxylase Holo Complexes Reveals Their Functional Expansion into Amino Acid Catabolism” (PLoS Pathogens, 2015).

The data set has as its system CC(C)=CC(=O)SCCNC(=O)CCNC(=O)[C@H](O)C(C)(C)COP(=O)(O)OP(=O)(O)OC[C@H]1O[C@@H](n2cnc3c(N)ncnc32)[C@H](O)[C@@H]1OP(=O)(O)O. Kind of data set: purified protein. Conditions: pH 7.6; 30.0 °C.

Broadly, the Km is the substrate concentration at which the rate is half of its maximum. “AccD1-AccA1 holo complex (M. tuberculosis MCC) (Mycobacterium tuberculosis H37Rv)”: the Km was determined as 220 ± 50 µM.
